Reference: PMC6117091, “The C. difficile clnRAB operon initiates adaptations to the host environment in response to LL-37” (PLoS Pathogens, 2018)

Test system: C. difficile 630Δerm infection
Test: Hamster model of C. difficile infection, clindamycin effect
Details: 30, 45, or 60 mg/kg by oral gavage 7 days prior to inoculation with 1000 spores of 630Δerm

In the case of `CCC[C@@H]1C[C@@H](C(=O)N[C@@H]([C@H]2O[C@H](SC)[C@H](O)[C@@H](O)[C@H]2O)[C@H](C)Cl)N(C)C1` [clindamycin], the “time to morbidity (in words)” value is reported as “No statistically significant differences in time to morbidity were observed”.
